# Test results: patent US20170165254A1, “TREATING FLAVIVIRUS INFECTIONS WITH AMODIAQUINE AND DERIVATIVES THEREOF” (GEORGETOWN UNIVERSITY, priority 2014, published 2017)
# Assays:
# [1] = test system: WNV replicon; experiment: Replicon inhibition assay, Vero/WNV replicon cells (Rluc); assay type: cell-based, West Nile virus (WNV)
# [2] = test system: DENV2 replicon; experiment: Replicon inhibition assay, BHK-21/DENV2 replicon cells (Rluc); assay type: cell-based, Dengue Virus 2 (DENV2)
structure (smiles),measurement,setting,value
COc1ccc2nc3cc(Cl)ccc3c(NC(C)CCCN(CCCl)CCCl)c2c1 (stereo not shown),% Replicon Inhibition (Means ± SEM) WNV,"[1]; 50 μM in 1% DMSO, Vero/WNV replicon cells",99.8 ± 0.0%
same,EC50,"[1]; read-out: WNV replicon EC50, Table 2, unit inferred",360 nM
same,% Replicon Inhibition (Means ± SEM) DENV2,"[2]; 50 μM in 1% DMSO, BHK-21/DENV2 replicon cells",99.9 ± 0.01%
same,EC50,"[2]; read-out: DENV replicon EC50, Table 2, unit inferred",390 nM
